# Source: PubChem BioAssay AID651828 (ICCB-Longwood Screening Facility, Harvard Medical School, 2012)
# Values joined by “and” are separate entries in the source; they are usually repeats but may differ in a detail not shown here. Identical values can stand only once. The entries are a selection whose mix differs from that of the whole data set. Active and inactive are the calls of the source. Cut-off read from the data, not from the text of the source: active = % bound below about 75%; inactive = the rest.
# Target: Nucleoprotein (Rift valley fever virus (strain ZH-548 M12)) (UniProt P21700)
# Assay: inhibitors of RVFV nucleoprotein–RNA binding, primary screen, biochemical, fluorescence polarization (AID 651828)
# Settings: RVFV N-RNA binding, stronger effect = lower value, concentration not given here
row,Compound,% bound
1,CCOP(OCC)N1CCOCC1,inactive: 107%
2,O=P(O)(O)F,inactive: 102%
3,CN(C(=O)Cc1ccc(Cl)c(Cl)c1)[C@H]1CCCC[C@@H]1N1CCCC1,inactive: 97.2% and inactive: 98%
4,O=C(O[C@H]1CN2CCC1CC2)C1NCc2ccccc2[C@@H]1c1ccccc1 (some centres undefined),inactive: 107%
5,CN(C(=O)Cc1ccc(Cl)c(Cl)c1)[C@@H]1CCCC[C@@H]1N1CCCC1,inactive: 97.9%
6,O=C(OC1CN2CCC1CC2)c1ccccc1 (centres undefined),inactive: 110%
7,O=C(OCCN1CCN(CCOCc2ccccc2)CC1)C(O)(c1ccccc1)c1ccccc1,inactive: 99.6%
8,CN(C(=O)Cc1ccc(Cl)c(Cl)c1)[C@@H]1CC[C@]2(CCCO2)C[C@H]1N1CCCC1,inactive: 91.3%
9,NC(=O)COC(=O)C1(O)c2ccccc2-c2ccccc21,inactive: 96.5%
10,CN(C(=O)Cc1ccccc1)[C@@H]1CC[C@]2(CCCO2)C[C@H]1N1CCCC1,inactive: 99.8%
11,Nc1nonc1OCCOc1nonc1N,inactive: 87.4%
12,Cc1cc(C)cc(OP(C)(=O)NCc2ccccc2)c1 (centres undefined),inactive: 96.3%
13,CN(C)CCS,inactive: 102%
14,CP(=O)(Nc1ccc(Cl)cc1)Oc1ccccc1 (centres undefined),inactive: 97.2%
